Source: PMC6712400, “Interaction of the Ankyrin H Core Effector of Legionella with the Host LARP7 Component of the 7SK snRNP Complex” (2019)

Biological target: c-myc-LARP7 (UniProt Q4G0J3)
Test: co-immunoprecipitation (anti-FLAG IP, immunoblot densitometry)
Details: HEK293T cells transiently transfected with 3XFLAG-AnkH mutant and c-myc-LARP7; parent: 0.2274

Row | Substance | response (LARP7/AnkH relative density)
1 | 3XFLAG-AnkH (from UniProt Q5ZT65) R96A | 0.898
2 | 3XFLAG-AnkH (from UniProt Q5ZT65) F33A | 0.54
